Measurements reported in PubChem BioAssay AID624099 (ICCB-Longwood, 2012).
The deposit covers about 21,000 reagents; this is a part drawn at random. In the full data, 497 (2.4%) got an active call. 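Higher z means weaker E2 silencing; only reporter increases were scored, and knock-downs that hurt cell survival may mask genuine repressor factors.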 Reagents against one gene are numbered here.

- Purpose: 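Host factors E2 relies on to silence an HPV18 LCR reporter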 (primary screen)
- Cell system: human C33A cervical carcinoma cells (HPV-negative) stably expressing BPV1 E2 and an HPV18 LCR luciferase reporter
- Reagent: siRNA pool against human genes, 40 nM
- Time to read-out: 72 h
- Measurement: 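HPV18 LCR reporter light per well, converted to plate-wise z-scores that exclude control wells, and averaged over triplicate plates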
- Reading the numbers: mean z-score and z-score: higher = stronger reporter signal, weaker E2 silencing
- Active means: 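Hit if mean z-score reaches 2 and two or more of three replicate z-scores also reach 2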

no.	target	reagent no.	mean z-score	z-score, replicate A	z-score, replicate B	z-score, replicate C	Call
1	DAB1	1	-0.28	-0.34	-0.3	-0.2	inactive
2	ZNF282	1	-0.08	0.23	-0.14	-0.32	inactive
3	IKZF1	1	0.13	0.29	-0.24	0.33	inactive
4	IKZF1	2	0.63	1	0.45	0.43	inactive
5	CTBP1	1	0.51	0.53	0.53	0.47	inactive
6	SNHG11	1	-0.12	-0.24	-0.02	-0.1	inactive
7	SCRN1	1	0.62	0.82	0.48	0.56	inactive
8	ATOX1	1	0.54	0.52	0.31	0.78	inactive
9	LRRC37A2	1	-0.08	-0.17	-0.07	0.01	inactive
10	RAB3C	1	-0.58	-0.63	-0.44	-0.66	inactive
11	HKDC1	1	0.14	0.16	0.26	-0.01	inactive
12	KLHL21	1	-0.76	-0.63	-1	-0.64	inactive
13	KIF12	1	-0.12	-0.16	0.01	-0.22	inactive
14	EHMT1	1	-0.9	-0.89	-1	-0.81	inactive
15	LOC389372 (retired record)	1	-0.11	0.07	-0.32	-0.08	inactive
16	LTF	1	-1.41	-1.31	-1.29	-1.63	inactive
17	RBM4	1	-0.05	0.03	-0.18	-0.01	inactive
18	GPD1L	1	0.67	0.48	0.5	1.04	inactive
19	USP35	1	0.26	0.45	0.13	0.19	inactive
20	ZNF677	1	-0.73	-0.76	-0.48	-0.95	inactive
21	INSC	1	-0.29	-0.19	-0.47	-0.2	inactive
22	SIPA1L1	1	1.26	0.94	1.4	1.43	inactive
23	PSD3	1	-0.55	-0.53	-0.72	-0.41	inactive
24	CBFA2T3	1	0.92	0.49	0.87	1.4	inactive
25	EIF4EBP1	1	-1.11	-0.88	-1.15	-1.31	inactive
26	CCL1	1	-0.04	-0.07	0.22	-0.26	inactive
27	CIB3	1	-0.89	-0.87	-0.65	-1.16	inactive
28	CHAD	1	0.01	-0.21	0.06	0.18	inactive
29	TMEM52	1	0.58	0.48	0.8	0.48	inactive
30	GBP6	1	-0.99	-1.29	-0.81	-0.86	inactive
31	LOC221140 (retired record)	1	-0.84	-1.22	-0.37	-0.94	inactive
32	TOR4A	1	0.8	0.52	0.71	1.17	inactive
33	TRIM31	1	-0.05	0.19	-0.53	0.18	inactive
34	TXLNA	1	-0.32	-0.21	-0.28	-0.46	inactive
35	CYP39A1	1	-1.94	-1.1	-1.82	-2.9	inactive
36	CEP72	1	-0.94	-1.35	-0.95	-0.52	inactive
37	HRG	1	0.8	1.23	0.92	0.24	inactive
38	LGI1	1	0.14	0.18	0.15	0.09	inactive
39	LOC391498 (retired record)	1	0.83	0.92	1.04	0.53	inactive
40	SPAG16	1	-0.26	-0.46	-0.28	-0.05	inactive
41	IGFBP5	1	-0.78	-0.62	-0.98	-0.73	inactive
42	ABCC3	1	0.26	0.2	0.15	0.44	inactive
43	GRAMD2B	1	-2.5	-2.24	-2.45	-2.8	inactive
44	ATP6V1G3	1	0.02	0.03	0	0.02	inactive
45	LOC389637 (retired record)	1	-0.5	-0.37	-0.48	-0.65	inactive
46	PDHA1	1	-0.64	-1.03	-0.66	-0.24	inactive
47	LOC392586 (retired record)	1	-0.67	-1.34	-0.5	-0.17	inactive
48	GSDMC	1	1.2	1.46	1.33	0.82	inactive
49	METTL26	1	-0.28	-0.36	-0.18	-0.3	inactive
50	PSMA7	1	-0.71	-0.91	-0.61	-0.6	inactive
51	DNASE1L1	1	0.23	-0.17	0.29	0.57	inactive
52	LOC400701 (retired record)	1	1.19	1.38	0.86	1.33	inactive
53	INSIG2	1	-0.83	-1	-0.77	-0.71	inactive
54	ATP4A	1	0.16	0.07	0.17	0.23	inactive
55	LOC400988 (retired record)	1	0.36	0.4	0.09	0.59	inactive
56	LOC390633 (retired record)	1	0.68	0.36	1.07	0.62	inactive
57	RFTN1	1	-1.7	-1.62	-1.83	-1.64	inactive
